Measured values from several laboratories, pooled; numbers as filed in NIAID ChemDB.

Common to all: growth or infection tests; species: Hepatitis B virus

Neighbouring rows are from separate reports. Percent inhibition refers to the dose given; in toxicity tests it is the harm to the cells. ECn is the concentration giving n% inhibition of infection, replication or growth. An empty or dashed field is not shown. a–b is a range or a potency band.

smiles,strain or isolate,cell line,method,measure,tested at,result
Cc1cn([C@H]2CC[C@@H](CO)O2)c(=O)[nH]c1=O,,HepG2.2.15,,EC90,,134 µM
Nc1nc(=O)n(CCOCP(=O)(O)O)cc1-c1ccccc1,,HB611,,EC50,,200 µM
Nc1ncnc2c1ncn2[C@@H]1O[C@H](CO)[C@@H](O)[C@@H]1O,,HepG2.2.15,,EC90,,23 µM
COCC(Cn1cnc2c(N)ncnc21)OCP(=O)(O)O,,HB611,,EC50,,32 µM
CC(C)OC(=O)CC1COP(=O)(CO[C@H](C)Cn2cnc3c(N)ncnc32)OC1,Genotype D,HepaRG,PCR,inhibition,1 µM,≤30%
O=c1ccn([C@H]2C[C@H](F)[C@@H](CO)O2)c(=O)[nH]1,,HepG2.2.15,,EC90,,36 µM
Nc1ncnc2c1ncn2C[C@@H](CO)OCP(=O)(O)O,,HB611,,EC50,,1.1 µM
CC(C)OC(=O)[C@H](C)N[P@](=O)(CO[C@H](C)Cn1cnc2c(N)ncnc21)Oc1ccccc1,Genotype D,HepaRG,PCR,inhibition,1 µM,≤30%
CCOC(=O)/C=C/c1ccc(O)cc1,,HepG2.2.15,ELISA / antigen,EC50,,454 µM
Cc1cn([C@H]2O[C@@H](CO)[C@H](O)[C@H]2F)c(=O)[nH]c1=O,WILD TYPE,HepG2,,inhibition,0.02 µM,54%
Cc1cn([C@H]2O[C@@H](CO)[C@H](O)[C@H]2F)c(=O)[nH]c1=O,M550V,,,EC50,,1.5 µM
COc1cc2oc(=O)ccc2cc1O,,HepG2.2.15,PCR,EC50,,762 µM
CCn1cc(C(=O)O)c(=O)c2ccc(C)nc21,,HepG2.2.15,,EC90,,57 µM
O=c1ccc2cc(O)c(O)cc2o1,,HepG2.2.15,PCR,EC50,,33.76 µM
Nc1nc(=O)n([C@H]2CC[C@@H](CO)O2)cc1Cl,,HepG2.2.15,,EC90,,>100 µM
Nc1nc(N)c2ncn(CCOCP(=O)(O)O)c2n1,,,,MIC,,0.02 µg/mL
Nc1nc(=O)n([C@@H]2CC[C@H](CO)O2)cc1F,RTM204,HEPAD79,,EC90,,>10 µM
Nc1nc(N)c2ncn(CC(CO)OCP(=O)(O)O)c2n1,,HB611,,EC50,,1.3 µM
CCOC(=O)CC1COP(=O)(CO[C@H](C)Cn2cnc3c(NC(=O)CC(C)C)ncnc32)OC1,Genotype D,HepaRG,PCR,inhibition,1 µM,30–50%
Nc1ccn([C@@H]2CS[C@H](CO)O2)c(=O)n1,WILD TYPE,HepG2,,inhibition,0.1 µM,94%
CCC(CCC(C)C1CCC2C3C[C@@H](O)[C@@]4(O)C[C@@H](O)CCC4(C)C3CCC12C)C(C)C,,HepG2 2.2.15,antigen,inhibition,100 µg/mL,35.5%
NC(=O)c1cn([C@@H]2C[C@H](CO)C[C@H]2O)nn1,,AD38,,EC90,,>10 µM
Nc1ncnc2c1ncn2CCOCP(=O)(O)O,,HepG2 2.2.15,hybridisation,EC90,,19 µM
C=C1CC[C@@H](O)[C@]2(C)CC[C@@H](C(C)C)[C@H](O)[C@@H]12,,HepG2.2.15,PCR,EC50,,19.7 µM
Nc1nc(=O)n([C@H]2C[C@H](F)[C@@H](CO)O2)cc1Cl,,HepG2.2.15,,EC90,,>100 µM
Nc1nc(=O)n([C@H]2O[C@@H](CO)C=C2F)cc1F,RTM204,HEPAD79,,EC90,,>10 µM
C[C@H](Cn1cnc2c(N)ncnc21)OCP(=O)(O)O,,HepG2.2.15,PCR,EC50,,3.34 µM
Nc1nc2c(ncn2CCC(CO)CO)c(=O)[nH]1,Mutations L526M M550V,HepG2,,EC50,,370 µM
Nc1ncnc2c1ncn2CCOCP(=O)(O)O,WILD TYPE,Huh7,,EC50,,0.58 µM
C[C@H](Cn1cnc2c(N)ncnc21)OCP1(=O)OCC(CCC(=O)OC2CCCC2)CO1,Genotype D,PHH,PCR,inhibition,1 µM,30–50%
COc1ccc([C@H]2OC[C@H]3[C@@H]2CO[C@@H]3c2ccc(OC)c(O)c2)cc1O,,HepG2.2.15,ELISA / antigen,EC50,,382 µM
Nc1nc2c(ncn2COCCO)c(=O)[nH]1,,AD38,,EC90,,>100 µM
Nc1nc(=O)n([C@@H]2CS[C@H](CO)O2)cc1F,RTM204,HEPAD79,,EC90,,>10 µM
Nc1nc(N)c2ncn([C@H]3CO[C@@H](CO)O3)c2n1,L526M,,,EC50,,59 µM
NC(=O)c1nnn([C@@H]2C[C@H](CO)C[C@H]2O)c1N,,AD38,,EC90,,>10 µM
Cc1cn([C@@H]2O[C@H](CO)[C@@H](O)[C@@H]2F)c(=O)[nH]c1=O,,HepG2.2.15,,EC90,,38 µM
COC(=O)c1cn([C@@H]2C[C@H](CCP(=O)(O)O)C[C@H]2O)nn1,,AD38,,EC90,,>10 µM
Nc1ncnc2c1ncn2CCOCP(=O)(O)O,,,,MIC,,0.1 µg/mL

A second listing of 3 rows from above:

smiles,strain or isolate,cell line,method,measure,tested at,result
Nc1nc(=O)n([C@H]2O[C@@H](CO)C=C2F)cc1F,RTM204,HEPAD79,,EC90,,>10 µM
Nc1nc(=O)n([C@@H]2CS[C@H](CO)O2)cc1F,RTM204,HEPAD79,,EC90,,>10 µM
C=C1CC[C@@H](O)[C@]2(C)CC[C@@H](C(C)C)[C@H](O)[C@@H]12,,HepG2.2.15,PCR,EC50,,19.7 µM